Values of other authors in patent US5547674A, “Pharmaceutical preparations derived from European mistletoe” (priority 1995, dated 1996).

System: AIDS patients
Conditions: human, in vivo; cited from earlier work

For “IL-2: Purified IL-2 which stimulates the production of CD4 cells”, the “CD4 count of AIDS patients” value is given as “improve CD4 count of AIDS patients” and the toxic side effects is given as “serious side effects which have symptoms similar to acute influenza”.
